Test system: CC(=O)N[C@H]1[C@@H](OP(=O)(O)OP(=O)(O)OC[C@H]2O[C@@H](n3ccc(=O)[nH]c3=O)[C@H](O)[C@@H]2O)O[C@H](CO)[C@@H](O)[C@@H]1O
Assay: purified protein
Settings: pH 7.5; 30.0 °C

## SdbA510–1050 (SdbA C-terminal domain) (Legionella pneumophila subsp. pneumophila str. Philadelphia 1)
  Km: 56.3 ± 12.7 µM

From paper PMC11373652
